Assay results as given in US20150223453A1, “QUATERNARY AMMONIUM ACID COMPOUNDS AND COMPOSITIONS FOR DISINFECTION, SANITIZATION, AND CLEANING” (LONZA INC., priority 2014, published 2015).

Assay: Corrosion on Steel
Conditions: 1000 ppm of active, steel submerged for 24 hours
For `CCCCCCCCCC[N+](C)(C)CCCCCCCCCC.[Cl-]` [Dialkyl quaternary ammonium chloride], the “% Change” value was 0.05835% and the “Total Weight Difference” value was 0.0104 g. In the case of Alkyl dimethyl benzyl ammonium chloride, the “% Change” value was 0.05814% and the “Total Weight Difference” value was 0.0105 g. For Dialkyl quaternary ammonium acetate, the “% Change” value was 0.000001789% and the “Total Weight Difference” value was 0.0032 g.
